Results of unrelated studies side by side (data: NIAID ChemDB).

Shared fields: whole-cell or culture tests; agent: Mycobacterium avium

Lines come from different laboratories, so protocols vary. Two numbers with a dash give a range or band. MIC50, MIC90 and the like: level of inhibition, or share of isolates inhibited. An empty or dashed field is not shown.

{"compound": "CCCCCOc1ccccc1NC(=O)OCCN1CCCCCC1", "strain or isolate": "MY330/88", "measure": "MIC", "result": "32 µM"}
{"compound": "O=C(NCc1cccnc1)c1ccc(Cl)cc1O", "conditions": "21 d", "strain or isolate": "ATCC 25291", "measure": "MIC", "result": "250 µM"}
{"compound": "Fc1ccc(-n2c(=S)oc3ccc(Br)cc3c2=S)cc1", "conditions": "21 d", "strain or isolate": "MY330/88", "measure": "MIC", "result": "16 µM"}
{"compound": "CCCCOc1ccccc1NC(=O)OCCN1CCCCC1", "strain or isolate": "MY330/88", "measure": "MIC", "result": "62.5 µM"}
{"compound": "Cc1ccc(C(=O)NCc2ccccn2)c(O)c1", "conditions": "21 d", "strain or isolate": "ATCC 25291", "measure": "MIC", "result": "500 µM"}
{"compound": "Cc1ccn2c(C(=O)NCc3ccc(N4CCC5(CC4)OCC(C)CO5)c(F)c3)c(C)nc2c1", "strain or isolate": "101", "measure": "MIC", "read by": "resazurin", "result": "2–10 µM"}
{"compound": "O=c1oc2ccc(F)cc2c(=S)n1-c1ccc(Cl)c(Cl)c1", "conditions": "21 d", "strain or isolate": "MY330/88", "measure": "MIC", "result": "8 µM"}
{"compound": "COc1ccc(NC(=O)NNC(=O)c2ccncc2)cc1", "conditions": "21 d", "strain or isolate": "MY330/88", "measure": "MIC100", "read by": "broth dilution", "result": "62.5 µM"}
{"compound": "CCS/C(N)=N/N=C/c1ccccc1O", "strain or isolate": "CNCTC D5/93", "measure": "MIC", "result": "125 µM"}
{"compound": "c1ccc(-c2ccc(CNc3ccccc3N3CCOCC3)cc2)cc1", "strain or isolate": "103317", "measure": "MIC", "result": "4 µg/mL"}
{"compound": "CCS/C(N)=N/N=C/c1ccc2cc(Cl)ccc2n1", "strain or isolate": "CNCTC MY66/72", "measure": "MIC", "result": "16 µM"}
{"compound": "CCCCCCCCCCOc1ccccc1NC(=O)OCC[NH+]1CCCC1", "strain or isolate": "MY330/88", "measure": "MIC", "result": "16 µM"}
{"compound": "Cc1ccc(-n2c(=S)oc3ccc(F)cc3c2=S)cc1", "conditions": "14 d", "strain or isolate": "MY330/88", "measure": "MIC", "result": "16 µM"}
{"compound": "Clc1ccc2c(c1)nc1cc(Nc3ccccc3)c(=NC3CCCCC3)cc-1n2-c1ccccc1", "strain or isolate": "11279", "measure": "MIC", "result": "3.3 µg/mL"}
{"compound": "Fc1ccc2oc(=S)n(-c3cccc(Cl)c3)c(=S)c2c1", "conditions": "14 d", "strain or isolate": "MY330/88", "measure": "MIC", "result": "8 µM"}
{"compound": "CCCCCOc1cccc(NC(=O)OCCN2CCCCCC2)c1", "strain or isolate": "MY330/88", "measure": "MIC", "result": "32 µM"}
{"compound": "Cc1ccn2c(C(=O)NCc3cccc(OC(F)(F)F)c3)c(C)nc2c1", "strain or isolate": "101", "measure": "MIC", "read by": "resazurin", "result": "<2 µM"}
{"compound": "CCC(C)S/C(N)=N/N=C/c1ccncc1", "strain or isolate": "CNCTC D5/93", "measure": "MIC", "result": "250 µM"}
{"compound": "Cc1ccn2c(C(=O)NCc3ccc(N(C)C)cc3)c(C)nc2c1", "strain or isolate": "2151", "measure": "MIC", "read by": "resazurin", "result": "2–10 µM"}
{"compound": "O=C(NNC(=O)c1ccncc1)Nc1ccc(Cl)c(Cl)c1", "conditions": "21 d", "strain or isolate": "MY330/88", "measure": "MIC100", "read by": "broth dilution", "result": ">125 µM"}
{"compound": "Cc1ccc2nc(SCc3ccc(Cl)c(Cl)c3)[nH]c2c1", "strain or isolate": "MY330/88", "measure": "MIC", "result": ">32 µM"}
{"compound": "Cc1ccc2oc(=S)n(-c3ccc(C(F)(F)F)cc3)c(=S)c2c1", "conditions": "21 d", "strain or isolate": "MY330/88", "measure": "MIC", "result": "32 µM"}
{"compound": "O=C(NCc1cccnc1)c1cc(Br)cc(Br)c1O", "conditions": "14 d", "strain or isolate": "ATCC 25291", "measure": "MIC", "result": "1000 µM"}
{"compound": "Cc1ccc2oc(=O)n(-c3ccc(Cl)cc3)c(=S)c2c1", "conditions": "21 d", "strain or isolate": "MY330/88", "measure": "MIC", "result": "2 µM"}
{"compound": "O=c1oc2ccc(F)cc2c(=O)n1-c1ccc(F)cc1", "strain or isolate": "CNCTC MY330/88", "measure": "MIC", "result": "31 µM"}
{"compound": "COc1ccc2oc(=O)n(-c3ccc(C(F)(F)F)cc3)c(=S)c2c1", "conditions": "21 d", "strain or isolate": "MY330/88", "measure": "MIC", "result": "125 µM"}
{"compound": "O=c1oc2cc(Cl)ccc2c(=O)n1-c1cccc(Cl)c1", "strain or isolate": "CNCTC MY330/88", "measure": "MIC", "result": "8 µM"}
{"compound": "O=c1oc2ccc(Br)cc2c(=S)n1-c1ccc(Br)cc1", "conditions": "21 d", "strain or isolate": "MY330/88", "measure": "MIC", "result": "32 µM"}
{"compound": "CCCCCCCCCCOc1ccccc1NC(=O)OCCN(C)C", "strain or isolate": "MY330/88", "measure": "MIC", "result": "8 µM"}
{"compound": "Cc1ccc(-n2c(=O)oc3ccc(C)cc3c2=O)cc1", "strain or isolate": "CNCTC MY330/88", "measure": "MIC", "result": "62.5 µM"}
{"compound": "O=C(NCc1ccccc1)c1cc(Br)cc(Br)c1O", "conditions": "14 d", "strain or isolate": "ATCC 25291", "measure": "MIC", "result": "125 µM"}
{"compound": "Clc1ccc(CNc2ccc(N3CCOCC3)cc2)cc1", "strain or isolate": "103317", "measure": "MIC", "result": ">16 µg/mL"}
{"compound": "Cc1ccc2nc(SCc3ccc(C#N)cc3)[nH]c2c1", "strain or isolate": "MY330/88", "measure": "MIC", "result": "32 µM"}
{"compound": "NNC(=O)c1ccncc1", "conditions": "14 d", "strain or isolate": "MY330/88", "measure": "MIC100", "read by": "broth dilution", "result": ">250 µM"}
{"compound": "CCS/C(N)=N/N=C/c1ccc2ccccc2n1", "strain or isolate": "CNCTC MY66/72", "measure": "MIC", "result": "16 µM"}
{"compound": "O=C(C/C=C/c1ccccc1)Nc1ccccc1N1CCSCC1", "strain or isolate": "103317", "measure": "MIC", "result": ">16 µg/mL"}
{"compound": "Cc1cn2c(C(=O)NCc3ccc(N4CCC(c5ccc(OC(F)(F)F)cc5)CC4)cc3)c(C)nc2s1", "strain or isolate": "2151", "measure": "MIC", "read by": "resazurin", "result": "<2 µM"}
{"compound": "O=C(NNC(=O)c1ccncc1)Nc1ccc(F)cc1Br", "conditions": "21 d", "strain or isolate": "MY330/88", "measure": "MIC100", "read by": "broth dilution", "result": ">125 µM"}
{"compound": "Cc1ccc2nc(SCc3ccccc3)[nH]c2c1", "strain or isolate": "MY330/88", "measure": "MIC", "result": ">62 µM"}
{"compound": "Cc1ccc2oc(=O)n(-c3cccc(Cl)c3)c(=O)c2c1", "strain or isolate": "CNCTC MY330/88", "measure": "MIC", "result": "16 µM"}
{"compound": "Cc1ccc2nc(C(F)(F)F)c(C(=O)NCc3ccc4c(c3)CCO4)n2c1", "strain or isolate": "101", "measure": "MIC", "read by": "resazurin", "result": "<2 µM"}
{"compound": "Clc1ccc(CNc2ccc(N3CCSCC3)cc2)cc1", "strain or isolate": "103317", "measure": "MIC", "result": "8 µg/mL"}
{"compound": "COc1ccc(NC(=O)OCC[NH+]2CCCC2)cc1", "strain or isolate": "MY330/88", "measure": "MIC", "result": "1000 µM"}
{"compound": "COc1cccc(C(=O)NCc2cccnc2)c1O", "conditions": "14 d", "strain or isolate": "ATCC 25291", "measure": "MIC", "result": "1000 µM"}
{"compound": "CCCCCCCCc1ccc(NC(=O)NNC(=O)c2ccncc2)cc1", "conditions": "14 d", "strain or isolate": "MY330/88", "measure": "MIC100", "read by": "broth dilution", "result": "250 µM"}
{"compound": "Cc1ccc2nc(SCc3cccc(F)c3)[nH]c2c1", "strain or isolate": "MY330/88", "measure": "MIC", "result": "62 µM"}

3 of the rows above, restated:

| compound | conditions | strain or isolate | measure | read by | result |
|---|---|---|---|---|---|
| Cc1ccc2oc(=O)n(-c3cccc(Cl)c3)c(=O)c2c1 |  | CNCTC MY330/88 | MIC |  | 16 µM |
| CCS/C(N)=N/N=C/c1ccccc1O |  | CNCTC D5/93 | MIC |  | 125 µM |
| CCCCCCCCCCOc1ccccc1NC(=O)OCC[NH+]1CCCC1 |  | MY330/88 | MIC |  | 16 µM |